Assay results as given in patent publication US20230174951A1, “PHENOL-RICH GRAPES” (THE STATE OF ISRAEL, MINISTRY OF AGRICULTURE & RURAL …, priority 2020, published 2023).

Test system: V. vinifera cv. Gamay Red cell culture
Experiment: Phe feeding of control, AroG* and AroG* + FLS-22 lines, metabolite levels
Type: cell-based, Vitis vinifera
Conditions: 5 mM Phe feeding, 9 days, compared to non-fed control, mean ± SE, n = 3; for Metabolite level, AroG* + FLS line: line 22

Row | Molecule | Metabolite level, AroG* line [fold change] | Metabolite level, Control line [fold change] | Metabolite level, AroG* + FLS line [fold change]
1 | OC[C@H]1O[C@@H](Oc2cc(O)cc(/C=C\c3ccc(O)cc3)c2)[C@H](O)[C@@H](O)[C@@H]1O (relative stereo) [cis-Piceid, cis-piceid] | 1.17±0.08 | 0.76±0.05 | 1.66±0.12
2 | OC[C@H]1O[C@@H](Oc2cc(O)cc(/C=C/c3ccc(O)cc3)c2)[C@H](O)[C@@H](O)[C@@H]1O (relative stereo) [t-Piceid, trans-piceid] | 3.06±0.1 | 1.39±0.12 | 3.66±0.13
3 | CC(=O)OC[C@H]1O[C@@H](Oc2cc3c(O)cc(O)cc3[o+]c2-c2ccc(O)c(O)c2)[C@H](O)[C@@H](O)[C@@H]1O [Cyanidin-3-acet-glu, cyanidin-3 -acetyl-glucoside] | 0.71±0.09 | 1.01±0.14 | 1.42±0.08
4 | OC[C@H]1O[C@@H](Oc2cc3c(O)cc(O)cc3[o+]c2-c2ccc(O)c(O)c2)[C@H](O)[C@@H](O)[C@@H]1O [Cyanidin-3-glu, cyanidin-3 -glucoside] | 0.92±0.08 | 1.35±0.17 | 1.69±0.24
5 | CC(=O)OC[C@H]1O[C@@H](Oc2cc3c(O)cc(O)cc3[o+]c2-c2cc(O)c(O)c(O)c2)[C@H](O)[C@@H](O)[C@@H]1O [Delphindin-3-acet-glu, delphindin-3 -acetyl-glucoside] | 2.8±0.28 | 3.95±0.92 | 3.43±0.12
6 | OC[C@H]1O[C@@H](Oc2cc3c(O)cc(O)cc3[o+]c2-c2cc(O)c(O)c(O)c2)[C@H](O)[C@@H](O)[C@@H]1O [Delphindin-3-glu, delphindin-3 -glucoside] | 3.07±0.12 | 2.72±0.38 | 5.7±0.73
7 | Oc1cc(O)c2c(c1)O[C@H](c1cc(O)c(O)c(O)c1)[C@H](O)C2 [Epigallocatechin, epigallocatechin] | 1.15±0.14 | 1.17±0.16 | 1.76±0.34
8 | O=c1c(O)c(-c2cc(O)c(O)c(O)c2)oc2cc(O)cc(O)c12 [Myricetin, myricetin] | 1.79±0.27 | 1.2±0.17 | 4.38±0.15
9 | COc1cc(-c2[o+]c3cc(O)cc(O)c3cc2OC2O[C@H](COC(=O)C=Cc3ccc(O)cc3)[C@@H](O)[C@H](O)[C@H]2O)cc(O)c1O (stereo partly drawn) [Petunidin-3 -coum-glu, petunidin-3-coum-glu] | 2.04±0.32 | 1.59±0.02 | 9.64±1.27
10 | COc1cc(-c2[o+]c3cc(O)cc(O)c3cc2O[C@@H]2O[C@H](COC(C)=O)[C@@H](O)[C@H](O)[C@H]2O)cc(O)c1O [Petunidin-3-acet-glu, petunidin-3-acetyl-glucoside] | 2.59±0.44 | 1.99±0.37 | 5.23±0.57
11 | COc1cc(-c2[o+]c3cc(O)cc(O)c3cc2O[C@@H]2O[C@H](CO)[C@@H](O)[C@H](O)[C@H]2O)cc(O)c1O [Petunidin-3-glu, petunidin-3-glucoside] | 2.2±0.22 | 2.09±0.29 | 5.48±0.63
12 | N[C@@H](Cc1ccccc1)C(=O)O [Phe, Phenylalanine] | 3.86±0.58 | 2.35±0.36 | 3.72±0.06
13 | Oc1ccc(C=Cc2cc(O)cc(O)c2)cc1 [Resveratrol, resveratrol] | 23.46±2.26 | 4.76±0.36 | 17.45±0.24
14 | O=C(O)/C=C/c1ccc(O)cc1 [p-Coumaric acid, p-coumaric acid] | 1.64±0.21 | 5.23±0.81 | 18.31±3.54
15 | Oc1ccc(/C=C/c2cc(O)cc3c2[C@@H](c2cc(O)cc(O)c2)[C@H](c2ccc(O)cc2)O3)cc1 [ε-Viniferin, ε-viniferin] | 30.79±4.65 | 4.35±0.13 | 24.79±3.22
16 | cyanidin-3 -coumaroyl-glucoside [Cyanidin-3-coum-glu] | 0.62±0.1 | 1.3±0.15 | 2.32±0.38
17 | delphindin-3 -coumaroyl-glucoside [Delphindin-3-coum-glu] | 1.52±0.29 | 2.41±0.36 | 6.55±0.87
